In the supplement of paper PMC9931576:
Human monoclonal antibodies against the spike receptor-binding domain (heavy:light variable regions). IC50 against pseudoviruses bearing the spike of naturally observed variants; lower = stronger; >10 µg/ml means not reached at the top dose. No active / inactive call. The stated detection limit is 0.0005 µg/ml; values near or below 0.001 µg/ml lie at the floor of the assay.

B1: BD56-1207 (protein)
chain 1: EVQLVESGGGLVQPGGSLRLSCAASEFSFTSYWMSWVRQAPGKGLEWVANINEDGSEKYYVDSVKGRFTISRDNAKNSLYLQMNSLRAEDTAVYYCARVSYQLLSSRYPAFHYYYFYYMDVWGKGTTVTVSS
chain 2: SSELTQDPAVSVALGQTVRITCQGDSLRSYYASWYQQKPGQAPLLVIYGENNRPSGIPDRFSGSSSGGTASLTITGAQAEDEADYYCNSRDTSGDSVLFGGGTKLTVL
B2: BD58-0544 (protein)
chain 1: EVQLVESGGGLIQPGGSLRLSCAASGFPVSSNYMTWVRQAPGRGLQWVSLIYSGGSTYYADSVKGRFTISRDNSKNTLYLQMNSLRAEDTAMYYCARDLGPYGMDVWGQGTTVTVSS
chain 2: SYVLTQPPSMSVAPGKPARITCGGDNIGGNSVNWYQQKPGQAPVLVVYDDSDRPSGIPERFSGSNSGNTATLTISRVEVGDEADYYCQVWDSSSDHPEVFGTGTKVTVL
B3: BD58-0543 (protein)
chain 1: EVQLAQSGAELKKPGATVKISCKVSGYTLADYYIHWIQQAPGRGLEWTALIDPENGQTLSTEKFQGRLTISADTSTDTIYMELSRLRSEDTAFYFCAIASRPFSSGGYRPEYYHLWGQGTLVTVSS
chain 2: DIQVTQSPSSLSASIGDRVTITCRASQPINDYLNWYQQKPGKAPKLLIYAASTLQSGVPSRFSGSGSGTDFTLTISSLQPDDFATYYCQQTFITPPYTFGQGTKLEIQ
B4: BD58-0542 (protein)
chain 1: QVTLRESGPALVKPTETLTLTCTFSGFSLSTSAMCVSWIRQPPGKALEWLARIDWEDDKYYSSSLKTRLTISKDTSKNQVFLTMTNMDPVDTATYYCARSGSGNYEDAFDVWGQGTMVTVSS
chain 2: SYELTQPPSLSVSPGQTAKITCSGDTLPNQFAYWYQQKPGQAPVMVIYKDTERPSGIPERFSGSSSGTSVTLIISGVQAEDEADYYCQSSDSRGSYRVILGGGTKLTVL
B5: BD56-1213 (protein)
chain 1: EVQLVESGGGLVQPGGSLRLSCAASGFTFGDYWMSWVRQAPGKGLEWVANIKQDGSEKYYVDSVRGRFTISRDNAKNSLFLQMNSLRPEDTAVYYCVRVWQWLGVDYWGQGTLVTVSS
chain 2: NFMLTQPHSVSESPGKTVTISCTGSSGSIANNYVQWYHQRPGSAPTTVIFEDNQRPSGVPDRFSGSIDSSSNSASLTISGLKTEDEADYYCQSFDGIFWVFGGGTKLTVL
B6: BD58-0552 (protein)
chain 1: QITLKESGPTLVKPTETLTLTCTFPGVSLSTSGVGVGWIRQPPGKALEWLALIYWDDDKVYSPSLKSRLTITKETSKNQVVLRMTNMEPVDTATYYCGYFPDSYLALDFDYWGQGTLVTVSS
chain 2: QSVLTQPPSVSEAPRQRVTISCSGSSSNIGNNAVNWYQQLPGKAPKLLIYYDDLLPSGVSDRFSGSKSGTSASLAISGLQSEDETDYYCAAWDDSLNAWVFGGGTKLTVL
B7: BD56-1185 (protein)
chain 1: EVQLVESGGGLVQPGRSLRLSCAASGFTFDDYDMNWVRQAPGKGLEWVSIISWDSGSIAYADSVKGRFTISRDNAKNSLYLQMNSLRTEDTALYYCAKDSAPLTGTTSLGYWGQGTLVTVSS
chain 2: QPVLTQPPSASASLGASVTLTCTLSSGYNNYKVDWYQQRPGKGPRFVMRVGPGGIVGSKGDGIPDRFSVLGSGLNRYLTIKNIHEEDESDYHCGADHGSGSNFVWVFGGGTKLTVL
B8: BD56-1200 (protein)
chain 1: QVQLQESGPGLVKPSETLSLTCTVSGGSISSYYWSWIRQPAGKGLEWIGRIYTSGSTNYNPSLKSRVTMSVDTSKNQFSLILSSVTAADAAVYYCAREPPVWYDNSDYYPHVFDPWGQGTLVTVSS
chain 2: QSALTQPRSVSGSPGQSVTISCTGTSSDVGGYNYVSWYQQHPGKAPKLMIYDVSKRPSGVPDRFSGSKSGNTASLTISGLQAEDEADYYCCSYAGSYTFRVVFGGGTKLTVL
B9: BD56-1227 (protein)
chain 1: QVQLVESGGGLVKPGGSLRLSCAASAFTFTNAWMSWVRQAPGKGLEWVGRIKSKIDGGTTDYAAPVKGRFTISRDDSKHMLYLQMNGLKTEDTAVYYCTTDLLNPDYFGSGTHYKPKIMDVWGQGTTVTVSS
chain 2: SYELTQPPSVSVSPGQTASITCSGDKLGDKYTCWYKQRPGQSPVLVIYEDTKRPSGIPERFSGSNSGNTATLTISGTQAIDEADYYCQAWDSSTQVFGGGTKLTVL
B10: BD58-0554 (protein)
chain 1: QVQLVQSGAEVKKPGASVKVSCKASGYTFTTYFIHWVRQAPGQGLDWMGWIDPYSGDTHFAQKFQGRVTMTRDTSIDTAYMELSSLRSDDTAVYYCARGGLFGVAAAGSFYYMDVWDKGTTVTVSS
chain 2: EIVLTQSPGTLSLSPGERATLSCRASQSVSGNNLAWYQQKVGQAPRLLMYGASSRAPGITDRFSGSGSGTDFTLTISRLEPEDFALYYCQQYGSSPLTFGGGTKVEIK

molecular target: SARS-CoV-2 Omicron BA.1 spike pseudovirus; test: pseudovirus neutralization IC50; higher = weaker neutralization
Method: (§1)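 Single-round VSV luciferase pseudovirus mixed with antibody dilutions for 1 h and put on Huh-7 cells for about a day; IC50 from the dose curve.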

Row | Binder | pseudovirus neutralization IC50
1 | B1 | 0.00244 µg/mL
2 | B2 | 0.00199 µg/mL
3 | B3 | > 10 µg/mL
4 | B4 | > 10 µg/mL
5 | B5 | > 10 µg/mL
6 | B6 | 0.0014 µg/mL
7 | B7 | 0.00275 µg/mL
8 | B8 | 0.0189 µg/mL
9 | B9 | 0.00425 µg/mL
10 | B10 | 0.0237 µg/mL

molecular target: SARS-CoV-2 Omicron BA.2 spike pseudovirus; test: as above
Method: as §1

Row | Binder | pseudovirus neutralization IC50
11 | B1 | 0.00182 µg/mL
12 | B2 | 0.000697 µg/mL
13 | B3 | 0.513 µg/mL
14 | B4 | 0.782 µg/mL
15 | B5 | 0.414 µg/mL
16 | B6 | 0.00032 µg/mL
17 | B7 | 0.00281 µg/mL
18 | B8 | 0.0184 µg/mL
19 | B9 | 0.00314 µg/mL
20 | B10 | 0.0125 µg/mL

molecular target: SARS-CoV-2 Omicron BA.2.75 spike pseudovirus; test: as above
Method: as §1

Row | Binder | pseudovirus neutralization IC50
21 | B1 | 0.00125 µg/mL
22 | B2 | 3.37 µg/mL
23 | B3 | > 10 µg/mL
24 | B4 | > 10 µg/mL
25 | B5 | > 10 µg/mL
26 | B6 | 0.000407 µg/mL
27 | B7 | > 10 µg/mL
28 | B8 | > 10 µg/mL
29 | B9 | > 10 µg/mL
30 | B10 | 0.205 µg/mL

molecular target: SARS-CoV-2 Omicron BA.2.75.2 spike pseudovirus; test: as above
Method: as §1

Row | Binder | pseudovirus neutralization IC50
31 | B1 | > 10 µg/mL
32 | B2 | > 10 µg/mL
33 | B3 | > 10 µg/mL
34 | B4 | > 10 µg/mL
35 | B5 | > 10 µg/mL
36 | B6 | 0.00233 µg/mL
37 | B7 | > 10 µg/mL
38 | B8 | > 10 µg/mL
39 | B9 | > 10 µg/mL
40 | B10 | > 10 µg/mL

molecular target: SARS-CoV-2 Omicron BA.5 spike pseudovirus; test: as above
Method: as §1

Row | Binder | pseudovirus neutralization IC50
41 | B1 | > 10 µg/mL
42 | B2 | 0.0667 µg/mL
43 | B3 | > 10 µg/mL
44 | B4 | > 10 µg/mL
45 | B5 | > 10 µg/mL
46 | B6 | 0.00216 µg/mL
47 | B7 | 2.19 µg/mL
48 | B8 | > 10 µg/mL
49 | B9 | > 10 µg/mL
50 | B10 | > 10 µg/mL

molecular target: SARS-CoV-2 Omicron BM.1.1.1 spike pseudovirus; test: as above
Method: as §1

Row | Binder | pseudovirus neutralization IC50
51 | B1 | > 10 µg/mL
52 | B2 | > 10 µg/mL
53 | B3 | > 10 µg/mL
54 | B4 | > 10 µg/mL
55 | B5 | > 10 µg/mL
56 | B6 | 0.00391 µg/mL
57 | B7 | > 10 µg/mL
58 | B8 | > 10 µg/mL
59 | B9 | > 10 µg/mL
60 | B10 | > 10 µg/mL

molecular target: SARS-CoV-2 Omicron BQ.1.1 spike pseudovirus; test: as above
Method: as §1

Row | Binder | pseudovirus neutralization IC50
61 | B1 | > 10 µg/mL
62 | B2 | > 10 µg/mL
63 | B3 | > 10 µg/mL
64 | B4 | > 10 µg/mL
65 | B5 | > 10 µg/mL
66 | B6 | > 10 µg/mL
67 | B7 | > 10 µg/mL
68 | B8 | > 10 µg/mL
69 | B9 | > 10 µg/mL
70 | B10 | > 10 µg/mL

molecular target: SARS-CoV-2 Omicron BR.2 spike pseudovirus; test: as above
Method: as §1

Row | Binder | pseudovirus neutralization IC50
71 | B1 | > 10 µg/mL
72 | B2 | > 10 µg/mL
73 | B3 | > 10 µg/mL
74 | B4 | > 10 µg/mL
75 | B5 | > 10 µg/mL
76 | B6 | 0.00471 µg/mL
77 | B7 | > 10 µg/mL
78 | B8 | > 10 µg/mL
79 | B9 | > 10 µg/mL
80 | B10 | > 10 µg/mL

molecular target: SARS-CoV-2 Omicron CA.1 spike pseudovirus; test: as above
Method: as §1

Row | Binder | pseudovirus neutralization IC50
81 | B1 | > 10 µg/mL
82 | B2 | > 10 µg/mL
83 | B3 | > 10 µg/mL
84 | B4 | > 10 µg/mL
85 | B5 | > 10 µg/mL
86 | B6 | 0.00172 µg/mL
87 | B7 | > 10 µg/mL
88 | B8 | > 10 µg/mL
89 | B9 | > 10 µg/mL
90 | B10 | > 10 µg/mL

molecular target: SARS-CoV-2 Omicron XBB spike pseudovirus; test: as above
Method: as §1

Row | Binder | pseudovirus neutralization IC50
91 | B1 | > 10 µg/mL
92 | B2 | > 10 µg/mL
93 | B3 | > 10 µg/mL
94 | B4 | > 10 µg/mL
95 | B5 | > 10 µg/mL
96 | B6 | 0.00281 µg/mL
97 | B7 | > 10 µg/mL
98 | B8 | > 10 µg/mL
99 | B9 | > 10 µg/mL
100 | B10 | > 10 µg/mL

molecular target: SARS-CoV-2 early D614G spike pseudovirus; test: as above
Method: as §1

Row | Binder | pseudovirus neutralization IC50
101 | B1 | > 10 µg/mL
102 | B2 | > 10 µg/mL
103 | B3 | > 10 µg/mL
104 | B4 | > 10 µg/mL
105 | B5 | > 10 µg/mL
106 | B6 | > 10 µg/mL
107 | B7 | > 10 µg/mL
108 | B8 | > 10 µg/mL
109 | B9 | > 10 µg/mL
110 | B10 | > 10 µg/mL
